Data reported in patent publication US10751301B2, “Methods for inhibiting conversion of choline to trimethylamine (TMA)” (The Procter & Gamble Company, priority 2017, dated 2020).

What was measured:
[1] = tested on: Proteus mirabilis 29906 (Pm) lysate; assay: Inhibition of formation of TMA from choline in Proteus mirabilis lysate (Example 2); assay type: biochemical; settings: read-out: TMA Inhibition (IC50, mol/L); Pm lysate 1.5 mg/mL protein, 50 μM d9-choline chloride, 37° C. two hours
[2] = tested on: whole cell wild-type P. mirabilis; assay: Inhibition of conversion of choline to TMA by whole cell wild-type P. mirabilis (Example 5); assay type: cell-based; settings: read-out: EC50 (mol/L) whole cell wild-type P. mirabilis
[3] = molecular target: recombinant P. mirabilis Cut C/D lysate (Proteus mirabilis, UniProt B4EYG1); settings: read-out: IC50 (mol/L) recombinant P. mirabilis Cut C/D lysate

In the case of C[S+](CCO)CCCCl (stereo not drawn), the IC50 [1] is reported as 1.32 µM, the EC50 [2] is reported as 0.0005 mol/L and the IC50 [3] is reported as 5.2 µM.
